Compound potency records, mixed from different reports. Data source: NIAID ChemDB in PubChem.

All rows: toxicity to cultured cells; cells: MT-4; measure: CC50

An empty or dashed field is not shown.

| smiles | method | value |
|---|---|---|
| CN1C(=O)[C@@H](c2cc(Cl)c(O)c(Cl)c2)NC(=O)[C@@H]2NC(=O)[C@H](c3cc(Cl)c(O)c(Cl)c3)NC(=O)[C@@H](NC(=O)C(=O)c3cc(Cl)c(O)c(Cl)c3)Cc3c[nH]c4cc(ccc34)-c3cc2cc(c3O)Oc2ccc(cc2)C[C@H]1C(=O)N[C@@H](C(=O)O)c1ccc(O)cc1 |  | >600 µM |
| CC(=O)OC1[C@]2(C)[C@@H]3[C@@H](C[C@@]1(OC(C)=O)[C@H](OC(C)=O)[C@H]1[C@@H](OC(=O)c4ccccc4)[C@@H](C)C[C@]1(O)[C@@H]2OC(C)=O)C(=O)C(C)(C)[C@H]3OC(C)=O | MTT | >100 µg/mL |
| COc1ccc(CN2CCN(C[C@@H](O)[C@H](Cc3ccccc3)NC(=O)[C@@H](NC(=O)OCc3csc(C)n3)C(C)C)[C@H](C(=O)NC(C)(C)C)C2)cc1OC |  | 57 µM |
| Nc1nc2c(ncn2[C@@H]2CS[C@@H](CO)O2)c(=O)[nH]1 |  | >372 µM |
| CC1=C[C@H](Cn2cnc3c(NC4CC4)nc(N)nc32)C[C@@H]1CO | MTT | >100 µg/mL |
| CC(C)c1nc(CN(C)C(=O)N[C@H](C(=O)N[C@@H](Cc2ccccc2)[C@H](O)CN2CCN(Cc3ccccc3)C[C@H]2C(=O)NC(C)(C)C)C(C)C)cs1 |  | 56 µM |
| Cc1cn([C@@H]2O[C@@H]3CN[C@H]4CS(=O)(=O)O[C@]43[C@H]2O[Si](C)(C)C(C)(C)C)c(=O)[nH]c1=O |  | >125 µM |
| Cc1cn([C@@H]2OC(O[Si](C)(C)C(C)(C)C)C3(OS(=O)(=O)C=C3NCCC(=O)OCc3ccccc3)C2O[Si](C)(C)C(C)(C)C)c(=O)n(C)c1=O |  | >250 µM |
| CCCC(CCC)C(=O)N1C[C@@H](O)[C@@H](Cc2ccccc2)N(Cc2ccc(O)cc2)C(=O)N1Cc1ccc(O)cc1 |  | 16.6 µM |
| CCCCC(=O)Nc1ccc(Cl)cc1S(=O)(=O)n1cccc1C(=O)OCC |  | >200 µM |
| CC(C)CC(=O)N1C[C@@H](O)[C@@H](Cc2ccccc2)N(Cc2ccc(N)cc2)C(=O)N1Cc1ccc(N)cc1 |  | 77.1 µM |
| CN1CCn2c(nc(C(=O)NCc3ccc(F)cc3)c(O)c2=O)C1(C)C | microscopy | >1 µM |
| Cc1cn([C@H]2S[C@H](CO)C[C@@H]2N=[N+]=[N-])c(=O)[nH]c1=O |  | >100 µM |
| CC1=C[C@H](Cn2cnc3c(N)ncnc32)C[C@@H]1CO | MTT | >100 µg/mL |
| CNc1ncnc2c1ncn2[C@@H]1S[C@@H](CO)C[C@@H]1N=[N+]=[N-] |  | >100 µM |
| O=c1[nH]cnc2c1[nH]c[n+]2[C@@H]1CS[C@@H](CO)O1 |  | >410 µM |
| CC1(C)C=Cc2c(c3c(c4ccc(=O)oc24)OC(C)(C)C=C3)O1 | MTT | 41 µM |
| Nc1ncnc2c1ncn2[C@@H]1CO[C@@H](CO)S1 |  | >395 µM |
| CCOC(=O)c1cccn1S(=O)(=O)c1cccc(NC(N)=O)c1 |  | >200 µM |
| Nc1nc2c(ncn2[C@H]2CS[C@@H](CO)O2)c(=O)[nH]1 |  | >372 µM |
| Cc1cn([C@@H]2O[C@@H]3CN[C@@]4(C(N)=O)CS(=O)(=O)O[C@@]34[C@H]2O[Si](C)(C)C(C)(C)C)c(=O)[nH]c1=O |  | 108 µM |
| CC(C)CC(=O)N1C[C@@H](O)[C@@H](Cc2ccccc2)N(Cc2ccc(O)cc2)C(=O)N1Cc1ccc(O)cc1 |  | 56.2 µM |
| C[C@]12CCC3C(CC=C4C[C@@H](O)CC[C@@]43C)C1CCC2C(=O)/C=C/c1ccc(Br)cc1 |  | 13.3 µM |
| CCOC(=O)c1nnsc1NCCCCNc1snnc1C(=O)OCC | MTT | 105 µM |
| Cc1c(Sc2ccccc2)n(COCCN2CCNCC2)c(=O)[nH]c1=O |  | >1 µM |
| Cc1cc(/C=C2\C(=O)Nc3ccc(S(=O)(=O)N(CC(C)C)C[C@@H](O)[C@H](Cc4ccccc4)NC(=O)O[C@H]4CO[C@H]5OCC[C@H]54)cc32)cc(C)c1O |  | 100 µM |
| c1ccc(COC2C3COC(O3)C(OCc3ccccc3)C2OCc2ccccc2)cc1 | MTT | >200 µg/mL |
| Cc1c(Sc2ccccc2)n(COCCN2CCOCC2)c(=O)[nH]c1=O |  | >1 µM |
| CNc1ncnc2c1ncn2[C@@H]1S[C@H](CO)C[C@@H]1N=[N+]=[N-] |  | >100 µM |
| Nc1ccn([C@H]2CO[C@@H](CO)O2)c(=O)n1 |  | 43.9 µM |
| Cc1ccnc2c1NC(=O)c1cccnc1N2C1CC1 |  | >4 µM |
| CC(=O)O[C@@H]1[C@H]2[C@@H](OC(=O)c3ccccc3)[C@@H](C)C[C@]2(O)[C@H](OC(C)=O)[C@@]2(C)[C@@H]3CC(C)(C)C(=O)[C@]3(OC(C)=O)C[C@@]12C | MTT | 49 µg/mL |
| CNc1ncnc2c1ncn2[C@H]1S[C@@H](CO)C[C@@H]1N=[N+]=[N-] |  | >100 µM |
| CSCC[C@H](OC(=O)[C@@H](N)c1ccccc1-c1c[nH]c2ccccc12)c1ccccc1 | MTT | 23 µM |
| CCS[C@]12CS(=O)(=O)O[C@@]13[C@@H](CN2)O[C@@H](n1cc(C)c(=O)[nH]c1=O)[C@@H]3O[Si](C)(C)C(C)(C)C |  | 42 µM |
| C=C1[C@H](OC(C)=O)[C@H]2[C@@H](OC(C)=O)[C@](C)(OC(C)=O)C[C@]2(OC(C)=O)C(=O)[C@@H](C)/C=C/C(C)(C)C(=O)[C@@H](OC(=O)c2ccccc2)[C@H]1OC(C)=O | MTT | 79 µg/mL |
| C[C@]12CCC3C(CC=C4CC(O)CC[C@@]43C)C1CCC2C1=NN(C(N)=S)C(c2ccc(Br)cc2)C1 |  | 11.78 µM |
| [N-]=[N+]=N[C@H]1C[C@H](CO)S[C@H]1n1cnc2c(Cl)ncnc21 |  | >100 µM |
| Cc1cn([C@@H]2OC3COC4(O)CS(=O)(=O)OC34C2O[Si](C)(C)C(C)(C)C)c(=O)[nH]c1=O |  | >100 µM |
| [N-]=[N+]=N[C@H]1C[C@H](CO)S[C@@H]1n1cnc2c(N)ncnc21 |  | >100 µM |
| CC(=O)Nc1ccc(Cl)cc1S(=O)(=O)n1ccc(C(C)=O)c1 |  | >200 µM |
| Cc1cn([C@H]2CS[C@@H](CO)O2)c(=O)[nH]c1=O |  | >410 µM |
| Cc1c(Sc2ccccc2)n(C/C=C/c2ccco2)c(=O)[nH]c1=O |  | >1 µM |
| COCC[C@H](C)OC(=O)[C@@H](N)c1ccccc1-c1c[nH]c2ccccc12 | MTT | >50 µM |
| [N-]=[N+]=N[C@@H]1C[C@@H](CO)S[C@@H]1n1cnc2c(Cl)ncnc21 |  | >100 µM |
| O=C1Cn2c(nc(C(=O)NCc3ccc(F)cc3)c(O)c2=O)CN1 | microscopy | >1 µM |
| CN(C)c1ccc(/C=C/C(=O)C2CCC3C4CC=C5C[C@@H](O)CC[C@]5(C)C4CC[C@]23C)c(Cl)c1 |  | 12.95 µM |
| CN1CCn2c(nc(C(=O)NCc3ccc(F)cc3)c(O)c2=O)C(N(C)C(=O)C(=O)N2CCCC2)C1 | microscopy | >1 µM |
| CCc1c(Sc2cc(C)cc(C)c2)n(C/C=C/c2ccco2)c(=O)[nH]c1=O |  | >1 µM |
| Cc1cn([C@H]2C[C@H](N=[N+]=[N-])[C@@H](CO)O2)c(=O)[nH]c1=O |  | >25 µM |
| CC(C)CN(C[C@@H](O)[C@H](Cc1ccccc1)NC(=O)O[C@H]1CO[C@H]2OCC[C@H]21)S(=O)(=O)c1ccc2c(c1)/C(=C/c1ccc(-c3ccccn3)cc1)C(=O)N2 |  | 63.1 µM |
| CCOCn1c(Cc2ccc(Cl)cc2)c(CC)c(=O)[nH]c1=O |  | >100 µM |
| CC1(C)NCCn2c1nc(C(=O)NCc1ccc(F)cc1)c(O)c2=O | microscopy | >1 µM |
| CSCC[C@H](C)OC(=O)[C@@H](NC(=O)CSC)c1ccccc1-c1c[nH]c2ccccc12 | MTT | 30 µM |
| CC(C)[C@H](NC(=O)OCc1cncs1)C(=O)N[C@@H](Cc1ccccc1)[C@H](O)CN1CCN(Cc2ccccc2)C[C@H]1C(=O)NC(C)(C)C |  | 53 µM |
| CCCOC12CS(=O)(=O)OC13[C@@H](CN2)O[C@@H](n1cc(C)c(=O)[nH]c1=O)[C@@H]3O[Si](C)(C)C(C)(C)C |  | 21.6 µM |
| [N-]=[N+]=N[C@H]1C[C@H](CO)S[C@@H]1n1cnc2c(Cl)ncnc21 |  | >100 µM |
| Nc1cn([C@H]2CC[C@@H](CO)O2)c(=O)nc1N |  | 13 µM |
| CC(C)[C@@H](NC(=O)N(C)Cc1cncs1)C(=O)N[C@@H](Cc1ccccc1)[C@H](O)CN1CCN(Cc2ccccc2)C[C@H]1C(=O)NC(C)(C)C |  | 56 µM |
| CCOC(=O)c1cccn1S(=O)(=O)c1cc(Cl)ccc1NC(=O)CBr |  | 1.7 µM |
| CC(C)c1nc(CN(C)C(=O)N[C@H](C(=O)N[C@@H](Cc2ccccc2)[C@H](O)CN2CCN(Cc3cncs3)C[C@H]2C(=O)NC(C)(C)C)C(C)C)cs1 |  | >100 µM |
| Cn1c([S-])nc2nc(-c3ccccc3)c(-c3ccccc3)nc2c1=O.Cn1c([S-])nc2nc(-c3ccccc3)c(-c3ccccc3)nc2c1=O.[O]=[V+2] |  | 61.43 µg/mL |
| CSCCC(OC(=O)[C@@H](N)c1ccccc1-c1c[nH]c2ccccc12)C(C)C | MTT | 30 µM |
| C=C1[C@H](OC(C)=O)[C@H]2[C@@H](OC(C)=O)[C@](C)(OC(C)=O)C[C@]2(OC(C)=O)C(=O)[C@@H](C)/C=C/C(C)(C)C(=O)[C@@H](OC(C)CCC)[C@H]1OC(C)=O | MTT | 40 µg/mL |
| CC1(C)NS(=O)(=O)Cn2c1nc(C(=O)NCc1ccc(F)cc1)c(O)c2=O | microscopy | >10 µM |

Repeating the final 8 entries:

smiles | method | value
Nc1cn([C@H]2CC[C@@H](CO)O2)c(=O)nc1N |  | 13 µM
CC(C)[C@@H](NC(=O)N(C)Cc1cncs1)C(=O)N[C@@H](Cc1ccccc1)[C@H](O)CN1CCN(Cc2ccccc2)C[C@H]1C(=O)NC(C)(C)C |  | 56 µM
CCOC(=O)c1cccn1S(=O)(=O)c1cc(Cl)ccc1NC(=O)CBr |  | 1.7 µM
CC(C)c1nc(CN(C)C(=O)N[C@H](C(=O)N[C@@H](Cc2ccccc2)[C@H](O)CN2CCN(Cc3cncs3)C[C@H]2C(=O)NC(C)(C)C)C(C)C)cs1 |  | >100 µM
Cn1c([S-])nc2nc(-c3ccccc3)c(-c3ccccc3)nc2c1=O.Cn1c([S-])nc2nc(-c3ccccc3)c(-c3ccccc3)nc2c1=O.[O]=[V+2] |  | 61.43 µg/mL
CSCCC(OC(=O)[C@@H](N)c1ccccc1-c1c[nH]c2ccccc12)C(C)C | MTT | 30 µM
C=C1[C@H](OC(C)=O)[C@H]2[C@@H](OC(C)=O)[C@](C)(OC(C)=O)C[C@]2(OC(C)=O)C(=O)[C@@H](C)/C=C/C(C)(C)C(=O)[C@@H](OC(C)CCC)[C@H]1OC(C)=O | MTT | 40 µg/mL
CC1(C)NS(=O)(=O)Cn2c1nc(C(=O)NCc1ccc(F)cc1)c(O)c2=O | microscopy | >10 µM

Conditions beyond the fields shown may differ between rows. CCn is the concentration with n% toxicity to the cells.